Data source: PubChem BioAssay AID504761 (Drosophila RNAi Screening Center, 2011)
In all, the deposit lists about 22,000 reagents; shown is an unselected part of those with a known target gene and a result. In the full data, 116 (0.52%) are marked active. 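Calls depend on retest data that are not deposited; infection was ranked per plate without normalising between plates; the unit of the infection score is not given.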 The raw values are shown without normalisation. Reagents against one gene are numbered here. Names joined by + are all predicted targets of the reagent. Not given: the amount of reagent, the time to read-out.

Screen: 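Genome-wide fly cell screen for genes dengue virus requires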 (primary screen)
Cells: D.Mel-2 cells from Drosophila
Reagent: long dsRNA against Drosophila genes
Treatment: infection with dengue virus type 2; dose and infection time not stated
Measurement: 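Per well on two replicate plates, imaging gave the percent of cells positive for viral envelope protein, ranked by infection, and a nuclear count of cells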
Reading the numbers: infection score: higher = more virus-infected cells; cell count: higher = more cells in the well
Rule for the call: 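Very low infection ranking in both replicate wells (chance probability at most 0.065), then a retest showing infection dropped 1.5-fold or more at p below 0.05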
Meaning of the calls: active = confirmed: knock-down lowers infection; inactive = not picked or not confirmed

| gene | reagent no. | infection score, replicate 1 | infection score, replicate 2 | cell count, replicate 1 | cell count, replicate 2 | Call |
| --- | --- | --- | --- | --- | --- | --- |
| Bili | 1 | 1.59 | 2.66 | 6146 | 6582 | inactive |
| Gbeta5 | 1 | 3.38 | 2.44 | 6600 | 6874 | inactive |
| shu | 1 | 28.4 | 44.7 | 6651 | 5199 | inactive |
| shu | 2 | 21.8 | 27 | 5277 | 5986 | inactive |
| CG14668 | 1 | 1.56 | 5.25 | 6912 | 6842 | inactive |
| Polr1E | 1 | 1.88 | 21.4 | 6811 | 5517 | inactive |
| Polr1E | 2 | 3.5 | 3.57 | 6088 | 6589 | inactive |
| inaC | 1 | 8.32 | 2.84 | 6706 | 6785 | inactive |
| PSMG1 | 1 | 9.55 | 13.9 | 6188 | 6594 | inactive |
| PSMG1 | 2 | 9.75 | 15.4 | 5200 | 6292 | inactive |
| Osi17 | 1 | 8.5 | 6.74 | 6150 | 6583 | inactive |
| CG2017 | 1 | 0.76 | 19 | 529 | 3238 | inactive |
| kat80 | 1 | 3.28 | 10 | 6351 | 6629 | inactive |
| kat80 | 2 | 1.64 | 3.48 | 6818 | 6866 | inactive |
| fw | 1 | 6.28 | 3.78 | 6386 | 7009 | inactive |
| fw | 2 | 3.35 | 8.5 | 6473 | 6788 | inactive |
| Ac13E | 1 | – | 18.6 | 446 | 5523 | inactive |
| Ac13E | 2 | 3.17 | 12.3 | 6536 | 6483 | inactive |
| shot | 1 | 2.97 | 1.43 | 6168 | 5445 | inactive |
| shot | 2 | 6.37 | 6.54 | 6410 | 6177 | inactive |
| shot | 3 | 32.3 | 20.7 | 5751 | 5976 | inactive |
| shot | 4 | 4.78 | 0.93 | 5716 | 6027 | inactive |

In a second layout: results already given
Osi17 → infection score, replicate 1: 8.5; infection score, replicate 2: 6.74; cell count, replicate 1: 6150; cell count, replicate 2: 6583; Call: inactive
CG2017 → infection score, replicate 1: 0.76; infection score, replicate 2: 19; cell count, replicate 1: 529; cell count, replicate 2: 3238; Call: inactive
kat80 #1 → infection score, replicate 1: 3.28; infection score, replicate 2: 10; cell count, replicate 1: 6351; cell count, replicate 2: 6629; Call: inactive
kat80 #2 → infection score, replicate 1: 1.64; infection score, replicate 2: 3.48; cell count, replicate 1: 6818; cell count, replicate 2: 6866; Call: inactive
fw #1 → infection score, replicate 1: 6.28; infection score, replicate 2: 3.78; cell count, replicate 1: 6386; cell count, replicate 2: 7009; Call: inactive
fw #2 → infection score, replicate 1: 3.35; infection score, replicate 2: 8.5; cell count, replicate 1: 6473; cell count, replicate 2: 6788; Call: inactive

Additional entries follow.
| gene | reagent no. | infection score, replicate 1 | infection score, replicate 2 | cell count, replicate 1 | cell count, replicate 2 | Call |
| --- | --- | --- | --- | --- | --- | --- |
| Ubr3 | 1 | 12.3 | 20.5 | 6475 | 6092 | inactive |
| Ubr3 | 2 | 3.54 | 1.8 | 6075 | 5945 | inactive |
| Ubr3 | 3 | 33.5 | 22.2 | 6447 | 6477 | inactive |
| Ubr3 | 4 | 16.8 | 13.8 | 3254 | 5636 | inactive |
| Oseg4 | 1 | 12.9 | 18.1 | 6003 | 6144 | inactive |
| CG12219 | 1 | 16.4 | 13 | 5748 | 5976 | inactive |
| CG12219 | 2 | 14.2 | 22.3 | 4637 | 4814 | inactive |
| mlt | 1 | 10.3 | 9.44 | 6143 | 6546 | inactive |
| mlt | 2 | 6.84 | 12.6 | 5922 | 7039 | inactive |
| CG42818 + Ca-Ma2d | 1 | 16.5 | 8.2 | 5696 | 6387 | inactive |
| CG42818 + Ca-Ma2d | 2 | 19.2 | 8.52 | 6534 | 6090 | inactive |
| nocte | 1 | 8.85 | 3.95 | 5232 | 6602 | inactive |
| nocte | 2 | 3.57 | 5.34 | 1624 | 5208 | inactive |
| Yp3 | 1 | 1.43 | 1.94 | 6593 | 6499 | inactive |
| Yp3 | 2 | 1.29 | 3.39 | 6285 | 6520 | inactive |
| Fit1 | 1 | 17.8 | 8.9 | 5695 | 5732 | inactive |
| Fit1 | 2 | 4.05 | 2.28 | 5929 | 6402 | inactive |
